Results of unrelated studies side by side (data: NIAID ChemDB).

Common to all: whole-cell or culture tests; organism: HIV-1; endpoint: fold resistance

Blank or dashed fields: not listed here. Fold resistance has wild type as its base. Lines come from different laboratories, so protocols vary.

structure	strain	mutations	cell line	method	result
Nc1nc(=O)n([C@H]2C=C[C@@H](CO)O2)cc1F	XM-ABC-resistant	RT-K65R L74V M184V Y115F	MT-4	p24	10
CCOCn1c(Sc2ccccc2)c(CC)c(=O)[nH]c1=O	IIIB	Nevirapine resistant (RT Y181C)	CEM	syncytia	108
Cc1cc(S(N)(=O)=O)ccc1NC(=O)COc1ccc(Cl)cc1C(=O)c1cccc(C#N)n1	HXB2	RT-V108I Y181C	HeLa + HELA CD4+	β-galactosidase	~1
CCCc1c(OC2CCCCC2)c2cc(Cl)ccc2[nH]c1=O	NNRTI-resistant (RT K103N V108I)	RT-K103N V108I	HeLa + HeLa-MAGI	β-galactosidase	>62.5
Cc1cn([C@H]2C=C[C@@H](CO)O2)c(=O)[nH]c1=O	XM-ABC-resistant	RT-K65R L74V M184V Y115F	MT-4	p24	2.7
CC(C)=CCOc1cc(NC(=S)c2ccsc2C)ccc1Cl	UC781-R (RT-Y181C)	RT-Y181C	CEM + CEM-SS	cytopathic effect / XTT	60
Cc1cc(C#N)cc(C(=O)c2cc(Cl)ccc2OCC(=O)Nc2ccc(OCCCN3CC=CC3)cc2C)c1	HXB2	RT-P225H	HeLa + HELA CD4+	β-galactosidase	~1
CCOCn1c(Cc2ccccc2)c(C(C)C)c(=O)[nH]c1=O	IIIB	RT-Y188H	CEM	syncytia	8500
CCN1c2ncc(CCOc3ccc(C(=O)Nc4cccn(CC(=O)O)c4=O)cc3C)cc2C(=O)N(C)c2cccnc21	-	RT-K103N Y181C	C8166	p24	1
Cc1ccsc1C(=S)Nc1ccc(Cl)c(/C=N/OC(C)C)c1	CALO(RT-T139I)	RT-T139I	CEM + CEM-SS	cytopathic effect / XTT	1.43
CC(C)=CCOc1cc(NC(=S)c2ccoc2C)ccc1Cl	UC040-R (RT-Y181C)	RT-Y181C	CEM + CEM-SS	cytopathic effect / XTT	111
CC(C)c1c(Sc2ccccc2)n(COCCO)c(=S)[nH]c1=O	IIIB	RT-Y181C	CEM	syncytia	30
Cc1cc(NS(=O)(=O)CC2CCCCC2)c(C)c(C(OC(C)(C)C)C(=O)O)c1-c1ccc2c(c1)CCCO2	NL4-3	Y99H	MT-4	p24 / luminescence	2
CCN1c2ncc(CCOc3ccc(C(=O)NC(C)(C)CC(=O)O)cc3C)cc2C(=O)N(C)c2cccnc21	-	RT-K103N Y181C	C8166	p24	>5
O=C1Nc2ccc(F)c(F)c2[C@@](/C=C/C2CC2)(C(F)(F)F)N1	-	RT-K103N V108I	-	-	116
CC(C)c1c(Sc2ccccc2)n(COCc2ccccc2)c(=O)[nH]c1=O	IIIB (TIBO 82150) (RT-L100I)	RT-L100I	CEM	syncytia	3.33
Cc1occc1C(=S)Nc1ccc(Cl)c(C(=O)OC(C)C)c1	NL4-3	RT-K103N	CEM + CEM-SS	cytopathic effect / XTT	183
Cc1ccc(C2CC2)c(-c2ccc3c(c2C)CCCO3)c1[C@H](OC(C)(C)C)C(=O)O	NL4-3	NRTI/NNRTI resistant NLAY351753	MT-4	luminescence	1
CCC(=O)c1ccc(F)c([C@@H]2C[C@@H]2NC(=O)Nc2ccc(C#N)cn2)c1O	LAI	NNRTI-resistant (RT P236L)	TZM-bl	β-galactosidase / luminescence	0.9
CC(C)[C@H](NC(=O)OCc1ccccn1)C(=O)N[C@@H](Cc1ccccc1)[C@@H](O)C[C@H](Cc1ccccc1)NC(=O)OCc1cccnc1	NL4-3	PR-M46I	MT-4	p24	1
CCN1c2ncc(CCOc3ccc(-c4ccc(CC(=O)O)c(F)c4)cc3C)cc2C(=O)N(C)c2cccnc21	-	RT-K103N Y181C	C8166	p24	1
C[C@@H]1CCO[C@H]2Cn3cc(C(=O)NCc4ccc(F)cc4F)c(=O)c(O)c3C(=O)N12	-	L74I/V75I	TZM-bl	luciferase / luminescence	0.6
CC=CCOc1cc(NC(=S)c2ccoc2C)ccc1OC	NL4-3	RT-Y181C	CEM + CEM-SS	cytopathic effect / XTT	46.7
CCN1c2ncc(CCOc3ccc(S(=O)(=O)Nc4ccc(C(=O)O)cc4)cc3C)cc2C(=O)N(C)c2cccnc21	-	RT-K103N Y181C	C8166	p24	1
O=C(O[C@@H]1[C@H](OC(=O)c2ccccc2)[C@@H](CO)O[C@H]1n1cnc2c(N(C(=O)c3ccccc3)C(=O)c3ccccc3)ncnc21)c1ccccc1	NL4-3	K65R	HeLaP4	β-galactosidase	0.92
C=CCO/N=C/c1cc(NC(=S)c2ccoc2C)ccc1Cl	NL4-3	RT-V179D	CEM + CEM-SS	cytopathic effect / XTT	94.3
COc1ccnc2[nH]cc(C(=O)C(=O)N3CCN(C(=O)c4ccccc4)C[C@H]3C)c12	LAI(GP120-V68A M434I) Recombinant	GP120-V68A M434I	MT-2	RT activity	77.25
CCOCn1c(Sc2ccccc2)c(C(C)C)c(=O)[nH]c1=S	IIIB TIBO R82913-resistant (RT K103N)	RT-K103N	CEM	syncytia	111
Cc1occc1C(=S)Nc1ccc(Cl)c(C(=O)OCC2CC2)c1	4xAZT(RT-D67N K70R T215Y K219Q)	RT-D67N K70R T215Y K219Q	CEM + CEM-SS	cytopathic effect / XTT	0.8
O=C(COc1ccc(Cl)cc1C(=O)c1ccccc1)Nc1ccc2cn[nH]c2c1	HXB2 (RT-K103N Y181C) Recombinant	RT-K103N Y181C	HeLa + HELA CD4+	β-galactosidase	~10
C/C=C/CSc1cc(NC(=S)c2ccsc2C)ccc1Cl	4xAZT(RT-D67N K70R T215Y K219Q)	RT-D67N K70R T215Y K219Q	CEM + CEM-SS	p24	0.5
Cc1occc1C(=S)Nc1ccc(Cl)c(/C=N/OC(C)(C)C)c1	4xAZT(RT-D67N K70R T215Y K219Q)	RT-D67N K70R T215Y K219Q	CEM + CEM-SS	cytopathic effect / XTT	0.5
C[C@H]1CO[C@@H]2Cn3cc(C(=O)NCc4ccc(F)cc4F)c(=O)c(O)c3C(=O)N12	NL4-3	G140S/Q148H	CBMC	RT activity	16.8
CCN1c2ncc(CCOc3ccc(-c4ccn(CC(=O)O)n4)cc3)cc2C(=O)N(C)c2cccnc21	-	RT-K103N Y181C	C8166	p24	1
O=C1Nc2ccc(Cl)cc2[C@@](C#CC2CC2)(C(F)(F)F)N1	-	RT-K103N P225H	-	-	44.7
Cc1cc(S(N)(=O)=O)ccc1NC(=O)COc1ccc(Cl)cc1C(=O)c1cc(F)cc(C#N)c1	HXB2	RT-K103N	HeLa + HELA CD4+	β-galactosidase	~1
CCN1c2ncc(CCOc3ccc(-c4ccc(CC(=O)O)cc4)cc3C)cc2C(=O)N(C)c2cccnc21	-	RT-K103N Y181C	C8166	p24	1
Cc1c(OCC2CCC2)c2cc(F)ccc2[nH]c1=O	NNRTI-resistant (RT Y181C)	RT-Y181C	HeLa + HeLa-MAGI	β-galactosidase	>3.28

The last 4 rows once more:

O=C1Nc2ccc(Cl)cc2[C@@](C#CC2CC2)(C(F)(F)F)N1 ; mutations: RT-K103N P225H ; result: 44.7
Cc1cc(S(N)(=O)=O)ccc1NC(=O)COc1ccc(Cl)cc1C(=O)c1cc(F)cc(C#N)c1 ; strain: HXB2 ; mutations: RT-K103N ; cell line: HeLa + HELA CD4+ ; method: β-galactosidase ; result: ~1
CCN1c2ncc(CCOc3ccc(-c4ccc(CC(=O)O)cc4)cc3C)cc2C(=O)N(C)c2cccnc21 ; mutations: RT-K103N Y181C ; cell line: C8166 ; method: p24 ; result: 1
Cc1c(OCC2CCC2)c2cc(F)ccc2[nH]c1=O ; strain: NNRTI-resistant (RT Y181C) ; mutations: RT-Y181C ; cell line: HeLa + HeLa-MAGI ; method: β-galactosidase ; result: >3.28